Assays:
[1] = biological target: T1, RTA (Ricinus communis, UniProt P02879); experiment: BioLayer Interferometry (BLI) binding of compounds to biotinylated RTA; conditions: BLI Octet RED, biotinylated RTA on sensor
[2] = biological target: ricin (Ricinus communis, UniProt P02879); experiment: Cell-free luciferase translation assay (rabbit reticulocyte lysate) with ricin; conditions: 100 ng/mL ricin, 90 min
[3] = biological target: T1, RTA; experiment: Cell-free luciferase translation assay (rabbit reticulocyte lysate) with RTA; conditions: 20 μg/mL RTA, 90 min

Row | SMILES | Koff [1] [s⁻¹] | Kon [1] [M⁻¹ s⁻¹] | Luciferase synthesis rate relative to ricin control group ([2]; 100 μM compound) [times] | Luciferase synthesis rate relative to ricin control group ([2]; 200 μM compound) [times] | Luciferase synthesis rate relative to RTA-treated group alone ([3]; 100 μM compound) | Luciferase synthesis rate relative to RTA-treated group alone ([3]; 200 μM compound) [fold]
1 | Nc1nc2ncc(CNc3ccc(C(=O)O)cc3)nc2c(=O)[nH]1 | 0.0514 | 5920 | – | – | – | –
2 | CCN(CC)S(=O)(=O)c1cccc(NN=C2C(=O)NC(=O)NC2=O)c1 | 0.00768 | 8320 | 1.5 | 1.8 | approximately 1.5 fold | 2.5

Reference: paper PMC11012547, “Identification and Biological Evaluation of a Novel Small-Molecule Inhibitor of Ricin Toxin” (2024)
